Anti-infective test results gathered from many reports (values: NIAID ChemDB through PubChem).

Shared fields: cytotoxicity tests; cells: HFF; endpoint: CC50

An empty or dashed field is not shown.

smiles	read by	value
Nc1nc(Cl)c2ncn(/C=C3/C[C@H]3CO)c2n1	neutral red	185 µM
CC(=O)OCC(COC(C)=O)OCn1cnc2c(=O)[nH]c(N)nc21	-	>100 µg/mL
Nc1nc(F)c2ncn(/C=C3\CC3(CO)CO)c2n1	neutral red	>377 µM
COc1cc(OC)c(NC(=S)Nc2ccc(NC(=O)c3ccco3)cc2C#N)cc1Cl	MTS	≥10 µg/mL
COc1nc(N)nc2c1ncn2/C=C1/C[C@H]1CO	-	404 µM
CCCCCCCCCCCCOCCCOP(=O)(O)CO[C@H](CO)Cn1ccc(N)nc1=O	neutral red	>190 µM
OC[C@@H]1O[C@@H](n2c(Br)nc3cc(Cl)c(Cl)cc32)[C@H](O)[C@H]1O	visual reading	>100 µM
OCCCOCc1c(Cl)nc2ccc(Cl)cn12	visual reading	100 µM
CCCCCCCCCCCCCCCCOCCCOP1(=O)CO[C@@H](Cn2ccc(N)nc2=O)CO1	neutral red	>100 µM
COc1cc2[nH]c(C)c(-c3ccc(Oc4ccc(OC(F)(F)F)cc4)cc3)c(=O)c2cc1F	absorbance	37.8 µM
Nc1nc2c(ncn2C[C@@H]2CC[C@@H](P(=O)(O)O)O2)c(=O)[nH]1	-	10 µg/mL
CCC(=O)Nc1ccc(NC(=S)Nc2cc(Cl)c(OC)cc2OC)cc1	MTS	≥10 µg/mL
CCCCCCCCCCCCCCOCCCOP(=O)(O)CO[C@H](CO)Cn1ccc(N)nc1=O	neutral red	>100 µM
Cc1cc2nc(Cl)n([C@H]3C[C@H](O)[C@@H](CO)O3)c2cc1C	visual reading	>100 µM
Cc1nc(-c2ncn([C@@H]3O[C@H](CO)[C@@H](O)[C@H]3O)c2C(N)=O)no1	-	>100 µM
Cc1ccc(NC(=S)Nc2ccc(NC(=O)c3ccco3)cc2)cc1Cl	MTS	≥10 µg/mL
CN[C@H]1C[C@@H](n2cnc3c(N)ncnc32)[C@H](O)[C@@H]1O	-	100 µg/mL
CC(C)Nc1c(C=O)c2cc(Cl)c(Cl)cc2n1[C@@H]1O[C@H](CO)[C@@H](O)[C@H]1O	-	3.2 µM
COc1nc(N)nc2c1ncn2C=C1CC1CO	neutral red	404 µM
OC[C@H]1O[C@@H](n2c(Br)nc3cc(Cl)c(Cl)cc32)[C@H](O)[C@@H]1O	-	190 µM
COC(c1cn([C@H]2C[C@H](O)[C@@H](CO)O2)c(=O)[nH]c1=O)C(Cl)Br	-	>250 µM
Nc1nc2c(ncn2/C=C2\CC2[C@@H](O)CO)c(=O)[nH]1	neutral red	>300 µM
COC(=O)C(C)NP(=O)(OC[C@@H]1C/C1=C\n1cc(C)c(=O)[nH]c1=O)Oc1ccccc1	-	>300 µM
OCC(O)COCc1c(Cl)nc2cc(Cl)c(Cl)cn12	visual reading	>100 µM
O=C(O)c1ccc(Oc2ccc(Cl)cc2O)s1	-	>10 µM
O=c1[nH]c(=O)n(COC(CO)CO)nc1Cc1ccc(Cl)cc1	-	>100 µM
CCc1cn([C@H]2C[C@H](O)[C@@H](CO)O2)c(=O)[nH]c1=O	-	81 µM
OCCCOCc1c(Cl)nc2cc(Cl)c(Cl)cn12	visual reading	100 µM
Nc1nc2cc(Cl)c(Cl)cc2n1[C@H]1C[C@H](O)[C@@H](CO)O1	visual reading	32 µM
OC[C@H]1O[C@@H](c2cc(Br)nc3cc(Cl)c(Cl)cc23)C(O)C1O	-	>100 µM
CN1N=C(N)c2cn([C@@H]3O[C@H](CO)[C@@H](O)[C@H]3O)c3nc(-c4ccccc4)nc1c23	visual reading	21 µM
CCSCc1c(Cl)nc2cc(Cl)c(Cl)cn12	visual reading	>100 µM
O=S(=O)(c1ccc(Oc2ccc(Cl)cc2O)cc1)N1CCCC1	-	>10 µM
O=c1[nH]c(=O)n([C@H]2C[C@H](O)[C@@H](CO)O2)cc1C(O)C(Cl)I	-	>231 µM
COc1ccc(Cc2nn(COCCO)c(=O)[nH]c2=O)cc1	-	>100 µM
Nc1nc2c(ncn2C=C2CC2CO)c(=O)[nH]1	-	>429 µM
OCCSCc1c(Cl)nc2cc(Cl)c(Cl)cn12	visual reading	>100 µM
CCCCCCCCCCCCCCCCCCOC[C@H](COP(=O)(O)CO[C@H](CO)Cn1ccc(N)nc1=O)OCc1ccccc1	neutral red	47 µM
COc1ncnc2c1ccn2COCCO	-	100 µM
Nc1[nH]nc2c1c1cc(Cl)c(Cl)cc1n2[C@@H]1O[C@H](CO)[C@@H](O)[C@H]1O	visual reading	5 µM
CC(=O)N1CCN(C(=O)c2ccc(Oc3ccc(Cl)cc3O)o2)CC1	-	>10 µM
CNc1c(C=O)c2cc(Cl)c(Cl)cc2n1[C@@H]1O[C@H](CO)[C@@H](O)[C@H]1O	-	3.2 µM
Cc1ccc(Cc2nn(COC(CO)CO)c(=O)[nH]c2=O)cc1	-	>100 µM
Nc1nc2ncn(/C=C3\C(F)C3(CO)CO)c2c(=O)[nH]1	-	>100 µM
COc1c(C#N)c2cc(Cl)c(Cl)cc2n1[C@@H]1O[C@H](CO)[C@@H](O)[C@H]1O	-	100 µM
CCCCCCCC/C=C\CCCCCCCOCCOP1(=O)CO[C@@H](Cn2ccc(N)nc2=O)CO1	neutral red	34 µM
CC(=O)N1CCN(c2ccc(Oc3ccc(Cl)cc3O)cc2)CC1	-	>10 µM
COc1cc(OC)c(NC(=S)Nc2ccc(NC(=O)c3ccco3)cc2C)cc1Cl	MTS	≥10 µg/mL
COC(=O)C(Cc1c[nH]c2ccccc12)NP(=O)(O)OCC1C/C1=C/n1cnc2c(N)ncnc21	-	>184 µM
[N-]=[N+]=NC(CBr)c1cn([C@H]2C[C@H](O)[C@@H](CO)O2)c(=O)[nH]c1=O	-	91 µM
OC[C@H]1O[C@@H](n2cnc3cc(Cl)c(Cl)cc32)C[C@@H]1O	visual reading	>100 µM
COC(c1cn([C@H]2C[C@H](O)[C@@H](CO)O2)c(=O)[nH]c1=O)C(I)I	-	>186 µM
Clc1cc2nc(Cl)c(COCc3ccccc3)n2cc1Cl	visual reading	100 µM
CN1N=C(N)c2cn([C@@H]3O[C@H](CO)[C@@H](O)[C@H]3O)c3nc(Cl)nc1c23	visual reading	>100 µM
OC[C@@H]1O[C@@H](n2c(Cl)nc3cc(Cl)c(Cl)cc32)[C@H](O)[C@H]1O	visual reading	>100 µM
CC(=O)OCC(CO)OCn1cnc2c(=O)[nH]c(N)nc21	-	>100 µg/mL
[N-]=[N+]=NC(CCl)c1cn([C@H]2C[C@H](O)[C@@H](CO)O2)c(=O)[nH]c1=O	-	>300 µM
O[C@@H]1[C@H](O)[C@H](O)CO[C@H]1n1c(Br)nc2cc(Cl)c(Cl)cc21	-	158 µM
Nc1nc(N)c2ncn(C=C3CC3CO)c2n1	neutral red	>431 µM
CCCC(=O)OCC(CO)OCn1cnc2c(=O)[nH]c(N)nc21	-	>100 µg/mL
Cn1cc(C(=O)Nc2ccc(Cl)cc2O)c(C(F)(F)F)n1	-	>10 µM
O=C(Nc1ccc(NC(=S)Nc2cc(C(F)(F)F)cc(C(F)(F)F)c2)cc1)c1ccco1	MTS	≥10 µg/mL
COC(c1cn([C@H]2C[C@H](O)[C@@H](CO)O2)c(=O)[nH]c1=O)C(Br)Br	-	>225 µM
O=c1[nH]c(=O)n(COCCO)nc1Cc1ccccc1	-	>100 µM
O=C(NCc1ccc(Cl)cc1)c1c[nH]c2ccc(C#CCO)cc2c1=O	-	75 µM
O=c1[nH]c(=O)n([C@H]2C[C@H](O)[C@@]3(CO)CC23)cc1/C=C/Br	-	>200 µM
COC(=O)C(C)NP(=O)(OC[C@@H]1C/C1=C\n1cc(N)c(=O)[nH]c1=O)Oc1ccccc1	-	>300 µM
CCO[C@@H]1[C@@H](OCC)[C@H](Cc2ccccc2)O[C@@H]2CO[C@@H](c3ccc(Cl)cc3)O[C@@H]12	-	71 µg/mL
COC(=O)[C@H](C)NP(=O)(OCC1C/C1=C/n1cnc2c(N)ncnc21)Oc1ccccc1	-	4.3 µM
O=c1[nH]c(=O)n(COC(CO)CO)nc1Cc1ccccc1	-	>100 µM
O=Cc1c(Cl)n([C@@H]2O[C@H](CO)[C@@H](O)[C@H]2O)c2cc(Cl)c(Cl)cc12	-	45 µM
COC(=O)C(C)NP(=O)(OC[C@@H]1C/C1=C/n1cc(C)c(=O)[nH]c1=O)Oc1ccccc1	-	>100 µM
CN1N=C(N)c2cn([C@@H]3O[C@H](CO)[C@@H](O)[C@H]3O)c3nc(N)nc1c23	visual reading	>100 µM
Nc1ncnc2c1ncn2/C=C1/C[C@@H]1CO	neutral red	180 µM
CCCCNc1c(C=O)c2cc(Cl)c(Cl)cc2n1[C@@H]1O[C@H](CO)[C@@H](O)[C@H]1O	-	10 µM
O=c1[nH]c(=O)n([C@H]2C[C@H](O)[C@@H](CO)O2)cc1C(O)C(Cl)Cl	-	>294 µM
COC(=O)[C@H](C)NP(=O)(OC[C@H]1C/C1=C/n1cnc2c(N)nc(N)nc21)Oc1ccccc1	-	121 µM
Nc1nc2c(ncn2/C=C2\CC2[C@H](O)CO)c(=O)[nH]1	neutral red	>300 µM
N=c1c2ncn(Cc3c(F)cccc3Cl)c2ncn1O	-	0.1 µg/mL
COc1nc2cc(Cl)c(Cl)cc2n1[C@H]1C[C@H](O)[C@@H](CO)O1	visual reading	>100 µM

For reference, 4 entries again:

smiles	read by	value
O=c1[nH]c(=O)n([C@H]2C[C@H](O)[C@@H](CO)O2)cc1C(O)C(Cl)Cl	-	>294 µM
OCCSCc1c(Cl)nc2cc(Cl)c(Cl)cn12	visual reading	>100 µM
Cn1cc(C(=O)Nc2ccc(Cl)cc2O)c(C(F)(F)F)n1	-	>10 µM
COC(=O)C(C)NP(=O)(OC[C@@H]1C/C1=C\n1cc(C)c(=O)[nH]c1=O)Oc1ccccc1	-	>300 µM

CCn: concentration that lowers growth or viability of the cells by n%. Conditions beyond the fields shown may differ between rows.